# Reference: patent publication US20220089695A1
# Tests used:
# [1] = molecular target: SARS-CoV-2 Spike (S) protein, recombinant, construct not stated at the place (SARS-CoV-2) (UniProt P0DTC2)
# [2] = molecular target: SARS-CoV-2 Spike (S) protein, recombinant, construct not stated at the place (SARS-CoV-2) (UniProt P0DTC2); remark: listed apart in the source
Substance,percent blockade [1],blocking of S protein binding (heat-map cell) [2]
DC-SIGN-Fc in combination with ACE2-Fc (from UniProt Q9BYF1 18-740; Q9NNX6 59-404),70% and 80%,–
L-SIGN-Fc in combination with ACE2-Fc (from UniProt Q9BYF1 18-740; Q9H2X3 71-399),70% and 80%,10.2%

# Where “and” joins values, the source holds several entries; their conditions need not be identical. Equal entries are not always repeated.
